Experimental data: article PMC10496123, “Potent Antifungal Activity of Penta-O-galloyl-β-D-Glucose against Drug-Resistant Candida albicans, Candida auris, and Other Non-albicans Candida Species” (ACS Infectious Diseases, 2023)

How the values were obtained:
[1] = cited from earlier work
[2] = 2,2′-Bipyridyl test of iron binding; type: physicochemical; conditions: pH 2.0, 10 μM ligand

O=C(O[C@@H]1Cc2c(O)cc(O)cc2O[C@@H]1c1cc(O)c(O)c(O)c1)c1cc(O)c(O)c(O)c1 [EGCG, epigallocatechin-gallate]
Iron (III) ions bound per molecule [1]: up to two

O=C(OC[C@H]1O[C@@H](OC(=O)c2cc(O)c(O)c(O)c2)[C@H](OC(=O)c2cc(O)c(O)c(O)c2)[C@@H](OC(=O)c2cc(O)c(O)c(O)c2)[C@@H]1OC(=O)c1cc(O)c(O)c(O)c1)c1cc(O)c(O)c(O)c1 [PGG, penta-O-galloyl-β-D-glucose]
Amount of iron (III) bound compared to EGCG ([2]; excess iron (III)): more than 2 × | Fe^3+ ions reduced to Fe^2+ ions per molecule ([2]; highest tested iron concentrations): 10

Cc1cc(C2CCCCC2)n(O)c(=O)c1 [ciclopirox]
Iron-binding stoichiometry [1]: three molecules of ciclopirox bind one iron ion
